Results of unrelated studies side by side (data: NIAID ChemDB).

Common to all: growth or infection tests; agent: Candida albicans; read by: broth dilution; read-out: MIC

Neighbouring rows are from separate reports.

{"compound": "CCCC[C@@H](C)/C=C(C)/C=C(\\C)C(=O)N/C(=C/[C@@](C)(O)/C=C/C=C/C=C/C(=O)NC1=C(O)CCC1=O)C(=O)[C@@H]1CO1", "strain": "4", "value": "25 µM"}
{"compound": "Cc1ccccc1NC(=O)CSc1nnc(-c2ccc(N=Cc3cccs3)cc2)o1", "strain": "MTCC 227", "value": "500 µg/mL"}
{"compound": "Cc1nn2c(-c3ccncc3)nnc2sc1=NNc1ccc(Cl)cc1", "strain": "ATCC 66027", "value": "6.25 µg/mL"}
{"compound": "C=C1C[C@@H]2C[C@@H]3CCO[C@@H](O3)c3cccc(c3)/C=C/C[C@H]3O[C@@H](/C(C)=C/C#N)[C@H](C)[C@@H](OC(=O)/C=C/C[C@@H](C1)O2)[C@H]3C", "strain": "96-489", "value": ">64 µg/mL"}
{"compound": "O=C(CCn1ccnc1)c1cccc(O)c1", "strain": "RTCC 1003", "value": ">64 µg/mL"}
{"compound": "CCN1CC(C)(C)OC(=O)C1CC(=O)Nc1cccnc1", "strain": "SC5314", "value": ">50 µg/mL"}
{"compound": "O=C(CSc1nnc(-c2ccc(N=Cc3cccs3)cc2)o1)Nc1ccc([N+](=O)[O-])cc1", "strain": "MTCC 227", "value": "100 µg/mL"}
{"compound": "O=C1C2=C(OC(CI)C2)C(=O)c2ccccc21", "strain": "Clinical isolate", "value": "12 µg/mL"}
{"compound": "Cc1nn(-c2ccc(S(=O)(=O)NC(=S)Nc3ccc(F)cc3)cc2)c(=O)c2c(C)noc12", "strain": "ATCC 10231", "value": "12.5 µg/mL"}
{"compound": "Cc1nn2c(-c3ccncc3)nnc2s/c1=N/Nc1ccc(S(N)(=O)=O)cc1", "strain": "ATCC 10231", "value": ">100 µg/mL"}
{"compound": "Oc1ccc2c(c1)CCc1ccc(cc1)Oc1cc(ccc1O)CCc1ccc-2c(O)c1", "strain": "CA 02", "value": "32 µg/mL"}
{"compound": "CCN1CC(C)(C)OC(=O)C1CC(=O)Nc1ccncc1", "strain": "SC5314", "value": ">50 µg/mL"}
{"compound": "Nn1c(SCC(O)(Cn2cncn2)c2ccc(F)cc2F)nnc1-c1ccc(Cl)cc1Cl", "strain": "IRFC 192", "value": ">64 µg/mL"}
{"compound": "O=C(CCn1ccnc1)c1cccc(C(O)c2ccc(Cl)c(Cl)c2)c1", "strain": "RTCC1024", "value": "64 µg/mL"}
{"compound": "COc1cc(NC(C)CCCNC(=O)CC(NC(=O)[C@@H](N)CCCCN)C(=O)O)c2nc(C(C)(C)C)ccc2c1", "value": ">20 µg/mL"}
{"compound": "O=C(CSc1nnc(-c2ccc(N=Cc3cccs3)cc2)o1)Nc1ccc(Br)cc1", "strain": "MTCC 227", "value": "1000 µg/mL"}
{"compound": "O=C(CCn1ccnc1)c1ccc2ccccc2c1", "strain": "RTCC1024", "value": ">64 µg/mL"}
{"compound": "Cc1ccc(-c2nnc(SCC(O)(Cn3cncn3)c3ccc(F)cc3F)n2N)cc1", "strain": "IRFC 36", "value": ">64 µg/mL"}
{"compound": "COc1cc(NC(C)CCCNC(=O)[C@H](CCCCN)NC(=O)[C@@H](N)CCCCN)c2nc(C(C)(C)C)ccc2c1", "value": ">20 µg/mL"}
{"compound": "CCn1c2ccccc2c2cnn(-c3ccc(C)c(C)c3)c(=O)c21", "value": "250 µg/mL"}
{"compound": "CCCCCCCCCCCCCCCC(=O)NC(CCCCN)C(=O)NC(CCCCN)C(N)=O", "strain": "4890", "value": "4 µg/mL"}
{"compound": "Nn1c(SCC(O)(Cn2cncn2)c2ccc(Cl)cc2Cl)nnc1-c1ccc(Cl)cc1", "strain": "IRFC 37", "value": ">64 µg/mL"}
{"compound": "Oc1ccc2cc1Oc1ccc(cc1)CCc1ccc(c(O)c1)-c1c(O)cccc1CC2", "strain": "CA 02", "value": ">512 µg/mL"}
{"compound": "C[C@H]1[C@H](O)[C@@H](C)/C=C/C=C/C=C/C=C/C=C/C=C/C=C/[C@H](O[C@@H]2O[C@H](C)[C@@H](O)[C@H](N)[C@@H]2O)C[C@@H]2O[C@](O)(C[C@@H](O)C[C@@H](O)CC[C@H](O)[C@@H](O)C[C@@H](O)CC(=O)O[C@H]1C)C[C@H](O)[C@H]2C(=O)O", "strain": "10231", "value": "0.03 µg/mL"}
{"compound": "COc1cc(NC(C)CCCNC(=O)[C@H](CCCCN)NC(=O)[C@@H](N)CCCCN)c2ncccc2c1", "value": ">20 µg/mL"}
{"compound": "O=c1c(N2CCOCC2)c(N2CCN(S(=O)(=O)Cc3ccccc3)CC2)cnn1-c1ccccc1", "strain": "C-43", "value": "200 µg/mL"}
{"compound": "Nc1scc2c1c(=O)oc1ccc3ccccc3c12", "strain": "ATCC 2091", "value": "128 µg/mL"}
{"compound": "Cc1nc2c(=O)n(C(=S)Nc3ccc(Cl)cc3)nc(C)c2s1", "strain": "ATCC 10231", "value": "50 µg/mL"}
{"compound": "CCn1c2ccccc2c2cnn(-c3ccccc3)c(=O)c21", "value": "250 µg/mL"}
{"compound": "C=C1C[C@@H]2C[C@@H]3CCO[C@@H](O3)c3coc(n3)/C=C/C[C@H]3O[C@@H](/C(C)=C/I)[C@H](C)[C@@H](OC(=O)/C=C/C[C@@H](C1)O2)[C@H]3C", "strain": "96-489", "value": ">64 µg/mL"}
{"compound": "CCOC(=O)c1[nH]c2ccccc2c1C#N", "value": "125 µg/mL"}
{"compound": "C=C1C[C@@H]2C[C@@H]3CCO[C@@H](O3)c3coc(n3)/C=C/C[C@H]3O[C@@H](/C(C)=C/I)[C@H](C)[C@@H](OC(=O)/C=C\\C[C@@H](C1)O2)[C@H]3C", "strain": "ATCC 14503", "value": ">64 µg/mL"}
{"compound": "O=C1c2ccccc2CC1Cn1ccnc1", "strain": "RTCC1024", "value": ">64 µg/mL"}
{"compound": "COc1ccc(N/N=c2/sc3nnc(-c4ccncc4)n3nc2C)cc1", "strain": "ATCC 10231", "value": "25 µg/mL"}
{"compound": "OC(CCn1ccnc1)c1cccc(C(O)c2ccc(Cl)cc2)c1", "strain": "RTCC 1003", "value": ">64 µg/mL"}
{"compound": "COc1ccc2cc1Oc1ccc(cc1)CCc1cc(O)ccc1-c1ccc(cc1O)CC2", "strain": "CA10", "value": ">512 µg/mL"}
{"compound": "CCN1CCOCC1CC(=O)Nc1ccc(C(C)C)cc1", "strain": "SC5314", "value": ">50 µg/mL"}
{"compound": "COc1ccc(-n2ncc3c([nH]c4ccccc43)c2=O)cc1", "value": "250 µg/mL"}
{"compound": "CCN1CC(C)(C)OC(=O)C1CC(=O)NC1CCCC1", "strain": "SC5314", "value": "50 µg/mL"}
{"compound": "NC[C@H]1O[C@H](O[C@H]2[C@H](O)[C@@H](O[C@H]3O[C@H](CO)[C@@H](O)[C@H](N)[C@H]3O)[C@H](N)C[C@@H]2N)[C@H](O)[C@@H](O)[C@@H]1O", "strain": "ATCC 2002", "value": "1.2 µg/mL"}
{"compound": "Nn1c(SCC(O)(Cn2cncn2)c2ccc(Cl)cc2Cl)nnc1-c1cccc(Br)c1", "strain": "IRFC 37", "value": ">64 µg/mL"}
{"compound": "C[C@H]1[C@H](O)[C@@H](C)/C=C/C=C/C=C/C=C/C=C/C=C/C=C/[C@H](O[C@@H]2O[C@H](C)[C@@H](O)[C@H](N)[C@@H]2O)C[C@@H]2O[C@](O)(C[C@@H](O)C[C@@H](O)CC[C@H](O)[C@@H](O)C[C@@H](O)CC(=O)O[C@H]1C)C[C@H](O)[C@H]2C(=O)O", "strain": "SC5314", "value": "1.6 µg/mL"}
{"compound": "C=C1C[C@@H]2C[C@@H]3CCO[C@@H](O3)c3cccc(c3)/C=C\\C[C@H]3O[C@@H](/C(C)=C/C#N)[C@H](C)[C@@H](OC(=O)/C=C/C[C@@H](C1)O2)[C@H]3C", "strain": "96-489", "value": ">64 µg/mL"}
{"compound": "COc1cc(NC(C)CCCNC(=O)[C@@H](CCCN)NC(=O)[C@H](N)CCCN)c2nc(C(C)(C)C)ccc2c1", "value": ">20 µg/mL"}
{"compound": "COc1ccc(NC(=O)CSc2nnc(-c3ccc(N=Cc4cccs4)cc3)o2)cc1", "strain": "MTCC 227", "value": "500 µg/mL"}
{"compound": "COc1cc(NC(C)CCCNC(=O)[C@H](CCCN)NC(=O)[C@@H](N)CCCN)c2ncccc2c1", "value": ">20 µg/mL"}
{"compound": "CCN1CC(C)(C)OC(=O)C1CC(=O)NCCC(C)(C)C", "strain": "SC5314", "value": ">25 µg/mL"}
{"compound": "Cc1nc2c(=O)[nH]nc(C)c2s1", "strain": "ATCC 10231", "value": "≥200 µg/mL"}
{"compound": "Nc1ncccc1-c1cc(Cc2ccc(COc3ccccn3)cc2)no1", "strain": "373", "value": "0.015 µg/mL"}
{"compound": "CCN1CC(C)(C)OC(=O)C1CC(=O)NCCc1ccccc1", "strain": "SC5314", "value": ">25 µg/mL"}
{"compound": "CC(=O)N1CCN(c2ccc(OC[C@H]3CO[C@](Cn4ccnc4)(c4ccc(Cl)cc4Cl)O3)cc2)CC1", "strain": "ATCC 66027", "value": "30 µg/mL"}
{"compound": "COc1cc(NC(C)CCCNC(=O)[C@@H](CCCN)NC(=O)[C@H](N)CCCN)c2ncccc2c1", "value": ">20 µg/mL"}
{"compound": "Cc1nc2c(=O)n(-c3ccc(S(=O)(=O)NC(=O)Nc4ccc(Cl)cc4)cc3)nc(C)c2s1", "strain": "ATCC 10231", "value": "50 µg/mL"}
{"compound": "Cn1c2ccccc2c2cn[nH]c(=O)c21", "value": "250 µg/mL"}
{"compound": "COc1cc(NC(C)CCCNC(=O)CC(NC(=O)[C@H](N)CCCCN)C(=O)O)c2ncccc2c1", "value": ">20 µg/mL"}
{"compound": "CC(C)S(=O)(=O)N1CCN(c2cnn(-c3cc(F)cc(F)c3)c(=O)c2OC2CCC(F)C2)CC1", "strain": "CLY16997", "value": "0.03 µg/mL"}
{"compound": "CC[C@@H]([C@H](C)O)n1ncn(-c2ccc(N3CCN(c4ccc(OC[C@@H]5CO[C@@](Cn6cncn6)(c6ccc(F)cc6F)C5)cc4)CC3)cc2)c1=O", "strain": "8649", "value": "0.03 µg/mL"}
{"compound": "O=C(CCn1ccnc1)c1cccc2ccccc12", "strain": "RTCC 1003", "value": ">64 µg/mL"}
{"compound": "Cc1nn(-c2ccc(S(=O)(=O)/N=C3\\SC(=O)C(=O)N3c3ccc(F)cc3)cc2)c(=O)c2c(C)noc12", "strain": "ATCC 10231", "value": "≥200 µg/mL"}
{"compound": "Nn1c(SCC(O)(Cn2cncn2)c2ccc(Cl)cc2Cl)nnc1-c1ccncc1", "strain": "IRFC 192", "value": ">64 µg/mL"}
{"compound": "O=C(CCn1ccnc1)c1ccc(Br)cc1", "strain": "RTCC 1003", "value": ">64 µg/mL"}

For reference, 7 entries again:

{"compound": "Cc1nc2c(=O)[nH]nc(C)c2s1", "strain": "ATCC 10231", "value": "≥200 µg/mL"}
{"compound": "OC(CCn1ccnc1)c1cccc(C(O)c2ccc(Cl)cc2)c1", "strain": "RTCC 1003", "value": ">64 µg/mL"}
{"compound": "Cc1nc2c(=O)n(-c3ccc(S(=O)(=O)NC(=O)Nc4ccc(Cl)cc4)cc3)nc(C)c2s1", "strain": "ATCC 10231", "value": "50 µg/mL"}
{"compound": "CCN1CC(C)(C)OC(=O)C1CC(=O)NCCC(C)(C)C", "strain": "SC5314", "value": ">25 µg/mL"}
{"compound": "O=c1c(N2CCOCC2)c(N2CCN(S(=O)(=O)Cc3ccccc3)CC2)cnn1-c1ccccc1", "strain": "C-43", "value": "200 µg/mL"}
{"compound": "Nn1c(SCC(O)(Cn2cncn2)c2ccc(Cl)cc2Cl)nnc1-c1ccc(Cl)cc1", "strain": "IRFC 37", "value": ">64 µg/mL"}
{"compound": "CCN1CC(C)(C)OC(=O)C1CC(=O)NCCc1ccccc1", "strain": "SC5314", "value": ">25 µg/mL"}